These are literature values, as cited in patent publication US7902170B2, “Influenza virus binding, sialylated oligosaccharide substance and use thereof” (priority 2000, dated 2011).

The subject of this series is influenza virus A/PR/8/34 (H1N1). The following applies: cited authors (Suzuki, 1994; Müthing, 1996); cited from earlier work.

For NeuAcα3Galβ4(Fucα3)GlcNAcβ-, the “Interaction of PR/8/34 with the structure” value is on record as “strong interaction”.

As for “NeuAcα3Galβ4GlcNAcβ3Galβ4(Fucα3)GlcNAcβ- [VIM-2]”, the “Interaction of PR/8/34 with the structure” value is “strong interaction”.
